Compound potency records, mixed from different reports. Data source: NIAID ChemDB in PubChem.

Shared fields: target-level tests

Two numbers with a dash give a range or band. ICn: concentration for n% inhibition. Neighbouring rows are from separate reports. Blank or dashed fields: not listed here. Percent inhibition refers to the dose given; in toxicity tests it is the harm to the cells.

compound	tested at	species	target	strain or isolate	measure	value
O=C(N[C@H](C(=O)O)c1c[nH]c2ccc(O)cc12)c1ccc2c(c1)nc(C(F)(F)F)n2C1CCCCC1		Poliovirus	RNA-dependent RNA polymerase		IC50	>25 µM
CC(C)(C)OC(=O)N1CC(N)C(C(=O)O)C1		Influenza A virus	Neuraminidase	A/TOKYO/67	IC50	58 µM
COc1ccc([C@H](NC(=O)c2ccc3c(c2)nc(-c2ccoc2)n3C2CCCCC2)C(=O)O)cc1OC		Poliovirus	RNA-dependent RNA polymerase	POLIO VIRUS	IC50	100 µM
CNC(=O)N1CC(C(=O)O)C(N)C1CNC(C)=O		Influenza A virus	Neuraminidase	A/TOKYO/67	Ki	470 µM
CCCCCCCCCCCCCCCCCC(=O)OC[C@@H](COP(=O)(O)OCCNCCO[C@@]1(C(=O)O)O[C@@H]([C@H](O)[C@H](O)CO)[C@H](NC(C)=O)[C@@H](O)[C@H]1F)OC(=O)CCCCCCCCCCCCCCCCC		Influenza A virus	Sialidase	H1N1 A/DUCK/36/4/76	IC50	62.5 µM
O=C(O)c1ccc(CN2CCC(CNC(=O)c3ccc4c(c3)nc(-c3ccoc3)n4C3CCCCC3)CC2)cc1		Poliovirus	RNA-dependent RNA polymerase		IC50	>25 µM
CCN(C(=O)N1C[C@H](N)[C@](O)(C(=O)O)C1)C(C)C		Influenza A virus	Neuraminidase	TOKYO/3/67	Ki	0.36 µM
CCCCCCCCCCCCC/C=C/[C@@H](O)[C@H](CO[C@@H]1O[C@H](CO)[C@H](O)[C@H](OS(=O)(=O)O)[C@H]1O)NC(=O)CCCCCCCCCCCCCCCCCCCCCCC	200 µM	Influenza A virus	Sialidase	H3N8 A/equine/Fontainebleau/79	inhibition	97.1%
CC(CC(=O)O)NC(=O)c1ccc2c(c1)nc(-c1ccoc1)n2C1CCCCC1		Poliovirus	RNA-dependent RNA polymerase		IC50	>25 µM
CC(C)N(C(=O)N1C[C@H](C(=O)O)[C@H](NCc2ccccc2)C1)C(C)C		Influenza A virus	Neuraminidase	A/TOKYO	IC50	>50 µM
CCCCCCCCCCCCCCCCCC(=O)OC[C@@H](COP(=O)(O)OCCNCCO[C@@]1(C(=O)O)O[C@@H]([C@H](O)[C@H](O)CO)[C@H](NC(C)=O)[C@@H](O)[C@H]1F)OC(=O)CCCCCCCCCCCCCCCCC		Influenza A virus	Sialidase	H1N1 A/DUCK/HK/36/76	IC50	62.5 µM
C[C@H](Cc1ccc(O)cc1)NC(=O)c1ccc2c(c1)nc(-c1ccoc1)n2C1CCCCC1		Poliovirus	RNA-dependent RNA polymerase		IC50	>25 µM
COC(=O)C1CC(C(=O)O)NC1CNC(C)=O		Influenza A virus	Neuraminidase	A/TOKYO/67	IC50	0.9 µM
Nc1nc(=O)c2ncn(COCCO)c2c(=O)[nH]1		Japanese encephalitis virus	NTPase/helicase		IC50	>500 µM
CCN(C(=O)C1CC(C(=O)O)C(N)C1CNC(C)=O)C(C)C		Influenza A virus	Neuraminidase	A/TOKYO/67	IC50	24 µM
CC(C)CN(CC(C)C)C(=O)N1C[C@@H](N)[C@@H](C(=O)O)C1		Influenza A virus	Neuraminidase	A/TOKYO	IC50	>50 µM
O=C(O)COc1ccc2[nH]cc(C[C@@H](NC(=O)c3ccc4c(c3)nc(-c3ccoc3)n4C3CCCCC3)C(=O)O)c2c1		Poliovirus	RNA-dependent RNA polymerase		IC50	>25 µM
CCN(C(=O)N1C[C@H](C(=O)O)[C@H](N)[C@@H]1CNC(C)=O)C(C)C		Influenza A virus	Neuraminidase	A/TOKYO/67	Ki	4.4 µM
O=C(NC(Cc1ccc(O)cc1)C(F)(F)F)c1ccc2c(c1)nc(-c1ccoc1)n2C1CCCCC1		Poliovirus	RNA-dependent RNA polymerase		IC50	>25 µM
O=C(O)COc1ccc(C[C@H](NC(=O)c2ccc3c(c2)nc(-c2ccoc2)n3C2CCCCC2)C(=O)O)cc1		Poliovirus	RNA-dependent RNA polymerase	POLIO VIRUS	IC50	100 µM
COc1ccc(CNC(=O)c2ccc3c(c2)nc(-c2ccccn2)n3C2CCCCC2)cc1OC		Poliovirus	RNA-dependent RNA polymerase		IC50	>25 µM
CC(C)(C)c1cc(Cl)c(O)c(C(N)C(=O)O)c1		Influenza A virus	Neuraminidase	TOKYO/3/67	Ki	41 µM
O=C(O)/C=C/c1cc(C[C@H](NC(=O)c2ccc3c(c2)nc(-c2ccoc2)n3C2CCCCC2)C(=O)O)ccc1O		Poliovirus	RNA-dependent RNA polymerase		IC50	>25 µM
CCN(C(=O)N1C[C@@H](N)[C@@H](C(=O)O)C1)C(C)C		Influenza A virus	Neuraminidase	A/TOKYO/67	IC50	0.5–57 µM

Repeating the final 2 entries:

O=C(O)/C=C/c1cc(C[C@H](NC(=O)c2ccc3c(c2)nc(-c2ccoc2)n3C2CCCCC2)C(=O)O)ccc1O ; species: Poliovirus ; target: RNA-dependent RNA polymerase ; measure: IC50 ; value: >25 µM
CCN(C(=O)N1C[C@@H](N)[C@@H](C(=O)O)C1)C(C)C ; species: Influenza A virus ; target: Neuraminidase ; strain or isolate: A/TOKYO/67 ; measure: IC50 ; value: 0.5–57 µM